Columns and labels:
[1] = test system: chikungunya virus (CHIKV); settings: Example 37, HEK-293T cells, Chik-ren, 24 hours, FIG. 11A
RNA viruses = experiment: Antiviral activity against nine RNA viruses (summary); settings: for in vitro replication of all tested RNA viruses: nine RNA viruses, immunostaining, flow cytometry, virus titers or luciferase virus (FIGS. 1-6); for cell-type specificity of antiviral activity: observed in HEK-293T, MRC5, HuH-7, Jeg3, HeLa and A549 cell lines and human peripheral blood lymphocytes

Molecule: 3-(1H-5-chloroindol-3-yl)-2-nitro-2,3-dihydrofuro[3,2-c]chromen-4-one [DD771]
- in vitro replication of chikungunya (CHIKV) (renilla activity) [1]: blocked

Molecule: O=c1oc2ccccc2c2c1C(c1c[nH]c3ccccc13)C([N+](=O)[O-])O2 (stereo not shown) [Example 123-G05, 3-(1H-Indol-3-yl)-2-nitro-2,3-dihydrofuro[3,2-c]chromen-4-one]
- in vitro replication of all tested RNA viruses (RNA viruses): blocked
- cell-type specificity of antiviral activity (RNA viruses): not cell-type specific

Molecule: O=C1CCCc2occ(-c3cccc(Cl)c3)c21 [Example 129-G03, 3-(3-chlorophenyl)-6,7-dihydro-5H-benzofuran-4-one]
- in vitro replication of all tested RNA viruses (RNA viruses): blocked
- cell-type specificity of antiviral activity (RNA viruses): not cell-type specific
- in vitro replication of chikungunya (CHIKV) (renilla activity) [1]: blocked

Molecule: C=Cc1cccc(-c2coc3c2C(=O)CCC3)c1 [GAC50, 3-(3-ethenylphenyl)-6,7-dihydro-5H-benzofuran-4-one]
- in vitro replication of chikungunya (CHIKV) (renilla activity) [1]: blocked

From US9315482B2, “Derivatives useful as antiviral agents” (priority 2010, dated 2016)
